Record: PubChem BioAssay AID1224833 (University of Georgia, 2016)
In all, the deposit lists about 12,000 reagents; shown is a part drawn at random. About 5,600 of all reagents (46%) were called active. 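Active calls cover z-scores past 1 in both directions, so they include lowered as well as raised rotavirus replication.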 No sequences are given here.

Screen: 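Host factors restraining rotavirus as candidate antiviral genes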 (primary screen)
System: monkey MA104 kidney cells
Knock-down reagent: siRNA pool against human genes, 50 nM
Timing: 48 h knock-down before infection; read 24 h after infection
Treatment: infection with rotavirus strain RV3 two days after transfection; infectious dose for this stage not given
Detection: 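z-score of rotavirus antigen signal per well, from a fluorescent immunoassay, relative to non-targeting control wells on the same plate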
Scale: z-score vs non-targeting control: higher = more rotavirus replication than with non-targeting control
Rule for the call: In these data the active calls have z-score vs non-targeting control at about -1 or lower, or at about 1 or higher
Calls: active = z-score beyond 1 either way; inactive = z-score within 1 of zero

Gene | z-score vs non-targeting control | call
SOX3 (SRY-box transcription factor 3) | -0.669 | inactive
WDR91 (WD repeat domain 91) | -1.21 | active
PCP2 (Purkinje cell protein 2) | 0.0839 | inactive
NCAM2 (neural cell adhesion molecule 2) | -0.561 | inactive
ADGRL2 (adhesion G protein-coupled receptor L2) | -1.41 | active
OR9G9 (olfactory receptor family 9 subfamily G member 9) | -2.12 | active
TBC1D25 (TBC1 domain family member 25) | -0.204 | inactive
PGM2 (phosphoglucomutase 2) | 0.573 | inactive
ZNF552 (zinc finger protein 552) | -0.799 | inactive
HNRNPH3 (heterogeneous nuclear ribonucleoprotein H3) | -2.76 | active
ZNF319 (zinc finger protein 319) | -1.98 | active
RRAD | 1.27 | active
C5AR1 (complement C5a receptor 1) | -0.568 | inactive
MTRES1 (mitochondrial transcription rescue factor 1) | -3.93 | active
WFDC3 (WAP four-disulfide core domain 3) | -0.797 | inactive
ZNF141 (zinc finger protein 141) | -2.35 | active
NOSIP (nitric oxide synthase interacting protein) | -1.09 | active
SPMIP4 (sperm microtubule inner protein 4) | -0.411 | inactive
NSMCE4A (NSE4A component of SMC5/6 complex) | 1.45 | active
RBMY1A1 (RNA binding motif protein Y-linked family 1 member A1) | 1.56 | active
PGM3 (phosphoglucomutase 3) | 0.751 | inactive
DRC3 (dynein regulatory complex subunit 3) | -0.644 | inactive
OGFOD2 | -1.21 | active
SHMT1 (serine hydroxymethyltransferase 1) | -1.33 | active
AIF1 (allograft inflammatory factor 1) | -2.27 | active
ZNF445 (zinc finger protein 445) | -0.887 | inactive
KLF4 (KLF transcription factor 4) | -0.869 | inactive
KLHL38 (kelch like family member 38) | -1.01 | active
TSPAN6 (tetraspanin 6) | -0.225 | inactive
PRRT3 (proline rich transmembrane protein 3) | -1.28 | active
KRT27 (keratin 27) | 0.447 | inactive
ROM1 (retinal outer segment membrane protein 1) | -0.583 | inactive
PROM2 (prominin 2) | -1.1 | active
SRA1 (steroid receptor RNA activator 1) | 0.377 | inactive
THRB (thyroid hormone receptor beta) | -0.687 | inactive
STX7 (syntaxin 7) | -0.453 | inactive
KLK2 (kallikrein related peptidase 2) | 0.511 | inactive
CALB2 (calbindin 2) | -2.15 | active
SEC24C (SEC24 homolog C, COPII component) | -0.778 | inactive
UST (uronyl 2-sulfotransferase) | -1.11 | active
YBX1 (Y-box binding protein 1) | -0.987 | inactive
RPP25 (ribonuclease P/MRP subunit p25) | 0.126 | inactive
YJEFN3 (YjeF N-terminal domain containing 3) | 0.848 | inactive
TNNT3 (troponin T3, fast skeletal type) | 1.23 | active
B3GALT5 (beta-1,3-galactosyltransferase 5) | -0.676 | inactive

Look-ups from the entries so far:
For “z-score vs non-targeting control”, PGM3 (phosphoglucomutase 3) shows 0.751
TSPAN6 (tetraspanin 6), call → inactive
KLK2 (kallikrein related peptidase 2), call → inactive
